Pooled drug test results. Numbers come from NIAID ChemDB, via PubChem.

Shared fields: whole-cell or culture tests; organism: HIV-1

ECn: concentration that inhibits the pathogen or its effect by n%. Rows are shuffled and stem from different studies. An empty or dashed field is not shown. Two numbers with a dash give a range or band.

compound,strain or isolate,endpoint,changes,read by,cell line,conditions,value
COc1c(C(=O)C(=O)N2CCN(C(=O)c3ccccc3)CC2C)cnc2c1c(C)nn2C,,EC50,,luciferase / reporter gene,HeLa,,1–5 µM
COc1cnc(-c2n[nH]c(C)n2)c2[nH]cc(C(=O)C(=O)N3CCC(=C(c4ccccc4)c4nnc(C)o4)CC3)c12,,EC50,,luciferase,HeLa,,<1 µM
O=c1[nH]c(=O)n([C@H]2C=C[C@@H](CO)O2)cc1CO,IIIB,EC50,,RT activity,PBMC,,0.14 µM
COc1ccc(/C=N/NC(=O)CN2c3c(-c4ccccc4)n[nH]c3-c3ccccc3S2(=O)=O)cc1OC,,EC50,,,PBMC,,46.6 µM
CCCCCCCCCCCCCCCCCCOCCOP(=O)(CO[C@H](C)Cn1cnc2c(N)ncnc21)OCc1ccccc1C,,EC50,,luminescence,PBMC,,0.0027 µM
O=c1ccn([C@H]2CC[C@@](F)(CO)C2)c(=O)[nH]1,,EC50,,,PBMC,,>100 µM
COC(=O)N[C@@]12CC[C@]3(C)[C@H](CC[C@@H]4[C@@]5(C)CC[C@H](OC(=O)CC(C)(C)C(=O)O)C(C)(C)[C@@H]5CC[C@]43C)C1=C(C(C)C)C(=O)C2,IIIB,EC50,,RT activity,MT-2,30% human serum,<0.199 µM
O=C1NC(=O)c2cc([N+](=O)[O-])c(SCc3ccc(Cl)cc3)cc21,,EC50,,luminescence,,,35 µM
CCN(CC)c1ccc(/C=N/NC(=O)CN2c3c(-c4ccccc4)n[nH]c3-c3ccccc3S2(=O)=O)cc1,,EC90,,,PBMC,,61.4 µM
CCCCNc1c(C(=O)C(=O)N2CCN(C(=O)c3ccccc3)C[C@H]2C)cnc2c1cnn2CC,,EC50,,luciferase / reporter gene,HeLa,,<1 µM
O=C(CN1c2c(-c3ccccc3)n[nH]c2-c2ccccc2S1(=O)=O)N/N=C/c1ccc(Br)cc1,,EC90,,,PBMC,,13.4 µM
COc1cc(O)c2c(=O)c3ccccc3n(C)c2c1,IIIB,EC50,,p24 / ELISA,OM-10.1,,>0.8 µg/mL
COc1cnc(-n2ccnn2)c2[nH]cc(C(=O)C(=O)N3CCC(=C(c4ccccc4)c4nnc(C(C)C)o4)CC3)c12,,EC50,,luciferase,HeLa,,<1 µM
Nc1ncnc2c1ncn2[C@H]1CC[C@@](F)(CO)C1,,EC50,,,PBMC,,27.6 µM
COc1cc(-c2ccc(N=Nc3ccc4c(S(=O)(=O)O)cc(S(=O)(=O)O)c(N)c4c3O)c(OC)c2)ccc1N=Nc1ccc2c(S(=O)(=O)O)cc(S(=O)(=O)O)c(N)c2c1O,205,EC50,,cytopathic effect / XTT,CEM + CEM-SS,,0.6 µM
CC(C)[C@@H]1NC(=O)[C@H](C(C)C)N([C@H]2C[C@H](O)[C@@H](CO)O2)C1=O,US/92/727,EC50,,RT activity,PBMC,,74.5 µM
COc1ccc(-c2n[nH]c(C)n2)c2[nH]cc(C(=O)N3CCN(C(=O)c4ccccc4)CC3)c12,,EC50,,luciferase / reporter gene,HeLa,,1–5 µM
COc1cc(C)cc2c(-c3c(O)cc(O)c4c3C[C@@H](C)N(C)[C@H]4C)cc(-c3cc(-c4c(O)cc(O)c5c4C[C@@H](C)N(C)[C@H]5C)c4cc(C)cc(OC)c4c3O)c(O)c12,,EC50,,,CEM + CEM-SS,,11.5–13.7 µM
C[C@@H]1NC(=O)[C@H](C)N([C@H]2C[C@H](N=[N+]=[N-])[C@@H](CO)O2)C1=O,US/92/727,EC50,,RT activity,PBMC,,13.7 µM
Cc1cn([C@H]2C=C[C@@H](CCP(=O)(O)O)O2)c(=O)[nH]c1=O,,EC50,,,MT-4,,>1000 µM
COc1cc(C)c(/C=C/C2NCCc3cc(OCc4ccccc4)c(OC)cc32)cc1OC,NL4-3,EC50,,fluorescence,MT-2,,0.036 µM
O=C1CN([C@H]2C[C@H](O)[C@@H](CO)O2)C(=O)CN1,US/92/727,EC50,,RT activity,PBMC,,72.3 µM
O=C(CSc1nc(O)c(Cc2ccc(F)cc2)c(=O)[nH]1)Nc1cccc2ccccc12,,EC50,,,MAGI,,>100 µM
CC(C)C1=C2[C@H]3CC[C@@H]4[C@@]5(C)CC[C@H](OC(=O)CC(C)(C)C(=O)O)C(C)(C)[C@@H]5CC[C@@]4(C)[C@]3(C)CC[C@@]2(NC(=O)NC2CNC2)CC1=O,IIIB,EC50,,RT activity,MT-2,30% human serum,0.2–0.999 µM
[N-]=[N+]=NC[C@H]1[C@H](n2cnc3c(N)ncnc32)O[C@@H]1CO,,EC50,,antigen,MT-4,,<3 µg/mL
Cc1noc(C(=O)N[C@@]23CC[C@]4(C)C(CCC5[C@@]6(C)CC[C@H](OC(=O)CC(C)(C)C(=O)O)C(C)(C)C6CC[C@]54C)C2=C(C(C)C)C(=O)C3)n1,IIIB,EC50,,RT activity,MT-2,30% human serum,<0.199 µM
COc1ccc(/C=N/NC(=O)CN2c3c(-c4ccccc4)n[nH]c3-c3ccccc3S2(=O)=O)c(OC)c1,,EC50,,,PBMC,,41 µM
Cc1cn([C@H]2C=C[C@@H](OCP(=O)(O)O)C2)c(=O)[nH]c1=O,,EC50,,,MT-4,,>1000 µM
OC[C@]1(F)CC[C@H](n2cnc3c(=S)nc[nH]c32)C1,,EC50,,,PBMC,,>100 µM
N#CC(=C1CCN(C(=O)C(=O)c2c[nH]c3c(-n4ccnn4)ncc(F)c23)CC1)c1ccccc1,,EC50,,luciferase,HeLa,,<1 µM
C[C@@H]1CN(C(=O)c2ccccc2)CCN1C(=O)C(=O)c1cc2ccccc2[nH]1,,EC50,,luciferase / reporter gene,HeLa,,<1 µM
Cc1cc(/C=C/C#N)cc(C)c1Oc1ccc(N)c(Nc2ccc(C#N)cc2)n1,NL4-3,EC50,,luciferase,TZM-bl,,0.00071 µM
Cn1c2ccccc2c(=O)c2c(O)cccc21,IIIB,EC50,,cytopathic effect / MTT,MOLT-4,,>15 µg/mL
NNC(=O)CN1c2c(-c3ccccc3)n[nH]c2-c2ccccc2S1(=O)=O,,EC50,,,PBMC,,>100 µM
CCNC(=O)N[C@@]12CC[C@]3(C)[C@H](CC[C@@H]4[C@@]5(C)CC[C@H](OC(=O)CC(C)(C)C(=O)O)C(C)(C)[C@@H]5CC[C@]43C)C1=C(C(C)C)C(=O)C2,IIIB,EC50,,RT activity,MT-2,30% human serum,<0.199 µM
COc1cnc(-c2ccc(C(=O)O)cc2)c2[nH]cc(C(=O)C(=O)N3CCC(=C(C#N)c4ccccc4)CC3)c12,,EC50,,luciferase,HeLa,,<1 µM
Cc1nc(CCCCCCC(=O)c2ccccc2)n2nc(NCCCCCCCCCCCCN)ccc12,LAI,EC50,,RT activity,CEM + CEM-SS,,7.2 µM
CN(C)C1=C(C#N)/C(=C2/C(C#N)=C(N(C)C)N(c3ccc([N+](=O)[O-])cc3)c3c2n(C)c2ccccc32)c2c(c3ccccc3n2C)N1c1ccc([N+](=O)[O-])cc1,Diphenyl sulfone-resistant (RT-Y181I),EC50,RT-Y181I,cytopathic effect / XTT,CEM + CEM-SS,,0.5 µM
Nc1ncnc2c1ncn2[C@H]1C[C@@H](CO)O1,,EC50,,antigen,MT-4,,<3 µg/mL
CC1CN(C(=O)C(=O)c2c[nH]c3ccccc23)CC/C1=C(/C#N)c1ccccc1,,EC50,,luciferase,HeLa,,<1 µM
N=C1Sc2ccccc2C2=NCCCN12,92UG001,EC50,,β-galactosidase,PBMC,,1.11 µM
Cc1nc(CCCCCCC(=O)c2ccccc2)n2nc(NCCCCCCCCCCN)ccc12,IIIB,EC50,,RT activity,MT-4,,>10 µM
CCCCCCCCCCCCCCCC(=O)OC[C@H]1O[C@@H](n2cnc3c(N)ncnc32)[C@@H]1CO,,EC50,,antigen,MT-4,,<3 µg/mL
CC(C)C1=C2C3CCC4[C@@]5(C)CC[C@H](OC(=O)CC(C)(C)C(=O)O)C(C)(C)C5CC[C@@]4(C)[C@]3(C)CC[C@@]2(NC(=O)c2ccsc2)CC1=O,IIIB,EC50,,RT activity,MT-2,30% human serum,<0.199 µM
Cc1nc2ccccc2c2c1C(=O)NC2=O,,EC50,,luminescence,,,100 µM
Nc1ncnc2c1ncn2[C@@H]1O[C@H](CO)[C@@H]1O,,EC50,,antigen,MT-4,,<3 µg/mL
CC(C)C1=C2C3CCC4[C@@]5(C)CC[C@H](OC(=O)CC(C)(C)C(=O)O)C(C)(C)C5CC[C@@]4(C)[C@]3(C)CC[C@@]2(NC(=O)NC2(c3ccccc3)CC2)CC1=O,IIIB,EC50,,RT activity,MT-2,30% human serum,<0.199 µM
Cc1nc(CCCCCCC(=O)c2ccccc2)n2nc(NCCCCCCCCNCc3cn([C@H]4C=C[C@@H](CO)O4)c(=O)[nH]c3=O)ccc12,LAI,EC50,,RT activity,CEM + CEM TK-,,6.3 µM
Cn1c2ccccc2c(=O)c2c(O)c(O)ccc21,IIIB,EC50,,p24 / ELISA,OM-10.1,,>7.8 µg/mL
COc1ccc(C#N)c2[nH]cc(C(=O)N3CCN(C(=O)c4ccccc4)C[C@H]3C)c12,,EC50,,luciferase / reporter gene,HeLa,,>0.5 µM
Cc1cn([C@@H]2O[C@H](CO)C3(OS(=O)(=O)C=C3N)[C@H]2O)c(=O)[nH]c1=O,HE,EC50,,cytopathic effect / trypan blue,MT-4,,>100 µg/mL
O=C(O)c1cc(-n2cccc2)ccc1Cl,93TH051 X4R5 CLADE E,EC90,,p24,PBMC + MT-2,,91.04 µM
Cc1cn([C@H]2C=C[C@@H](CO)O2)c(=O)[nH]c1=O,IIIB,EC50,,RT activity,MT-4,,0.28 µM
O=S(=O)(Oc1ccc2ccccc2c1)c1ccc2c(c1)C(=NO)c1cc(S(=O)(=O)Oc3ccc4ccccc4c3)ccc1-2,,EC50,,,MAGI,,2 µM
O=C(CN1c2c(-c3ccccc3)n[nH]c2-c2ccccc2S1(=O)=O)N/N=C/c1ccc([N+](=O)[O-])cc1,,EC50,,,PBMC,,25.1 µM
COc1ncc(OC)c2c(C(=O)C(=O)N3CCC(=C(C#CC(C)C)c4ccccc4)CC3)c[nH]c12,,EC50,,luciferase,HeLa,,<1 µM
O=C(CN1c2c(-c3ccccc3)n[nH]c2-c2ccccc2S1(=O)=O)N/N=C/c1ccccc1[N+](=O)[O-],,EC50,,,PBL,,4.8 µM
CCOCn1c(Sc2cccc(Cl)c2)cc(=O)[nH]c1=O,NL4-3,EC50,,MTT,MT-4,,0.015 µg/mL
Cc1nc(CCCCCCC(=O)c2ccccc2)n2nc(NCCCCCCNCc3cn([C@H]4C=C[C@@H](CO)O4)c(=O)[nH]c3=O)ccc12,Nevirapine-resistant,EC50,,RT activity,CEM + CEM-SS,,0.083 µM
O=C(CN1c2c(-c3ccccc3)n[nH]c2-c2ccccc2S1(=O)=O)N/N=C/c1ccccc1F,,EC90,,,PBMC,,>100 µM

For reference, 8 entries again:

COc1ccc(/C=N/NC(=O)CN2c3c(-c4ccccc4)n[nH]c3-c3ccccc3S2(=O)=O)cc1OC ; endpoint: EC50 ; cell line: PBMC ; value: 46.6 µM
Cc1cn([C@H]2C=C[C@@H](CCP(=O)(O)O)O2)c(=O)[nH]c1=O ; endpoint: EC50 ; cell line: MT-4 ; value: >1000 µM
Cc1noc(C(=O)N[C@@]23CC[C@]4(C)C(CCC5[C@@]6(C)CC[C@H](OC(=O)CC(C)(C)C(=O)O)C(C)(C)C6CC[C@]54C)C2=C(C(C)C)C(=O)C3)n1 ; strain or isolate: IIIB ; endpoint: EC50 ; read by: RT activity ; cell line: MT-2 ; conditions: 30% human serum ; value: <0.199 µM
O=c1[nH]c(=O)n([C@H]2C=C[C@@H](CO)O2)cc1CO ; strain or isolate: IIIB ; endpoint: EC50 ; read by: RT activity ; cell line: PBMC ; value: 0.14 µM
OC[C@]1(F)CC[C@H](n2cnc3c(=S)nc[nH]c32)C1 ; endpoint: EC50 ; cell line: PBMC ; value: >100 µM
CCNC(=O)N[C@@]12CC[C@]3(C)[C@H](CC[C@@H]4[C@@]5(C)CC[C@H](OC(=O)CC(C)(C)C(=O)O)C(C)(C)[C@@H]5CC[C@]43C)C1=C(C(C)C)C(=O)C2 ; strain or isolate: IIIB ; endpoint: EC50 ; read by: RT activity ; cell line: MT-2 ; conditions: 30% human serum ; value: <0.199 µM
NNC(=O)CN1c2c(-c3ccccc3)n[nH]c2-c2ccccc2S1(=O)=O ; endpoint: EC50 ; cell line: PBMC ; value: >100 µM
Nc1ncnc2c1ncn2[C@H]1CC[C@@](F)(CO)C1 ; endpoint: EC50 ; cell line: PBMC ; value: 27.6 µM